Pooled drug test results. Numbers come from NIAID ChemDB, via PubChem.

All rows: host cell toxicity; cell line: Vero cells; endpoint: CC50

Lines come from different laboratories, so protocols vary. An empty or dashed field is not shown. CCn: concentration that lowers growth or viability of the cells by n%.

smiles | read by | result
N=c1c2ncnc(Nc3ccc(F)cc3)c2ncn1NC(=O)c1ccco1 |  | 2.17 µg/mL
CN(C)c1cc2nc(C3CCCCC3)[nH]c2cc1NC(=O)c1ccc(OC(F)(F)F)cc1F |  | >200 µg/mL
Cc1ccc(C)n1-c1nc(-c2ccc(Br)cc2)cs1 | MTT | 257 µM
O=C(CNc1cccc([N+](=O)[O-])c1)Sc1nnc(-c2ccncc2)o1 | MTT | >62.5 µg/mL
CC(C)=CCC[C@H](C)C1CC[C@@H](C)c2c(O)cc(C)c([N+](=O)[O-])c21 | MTT | 251 µM
CC(C)=CCc1c(O)cc2c(c1O)C(=O)CC(c1ccccc1)O2 | MTT | 21.87 µg/mL
CC(C)=C[C@@H]1C[C@H](C)C2CC[C@@H](C)c3c(O)cc(C)c1c32 | MTT | 173 µM
COc1cc2c(cc1/C=C/C(=O)c1ccc(C)cc1C)C1CC[C@@]3(C)C(CC[C@@H]3O)C1CC2 | neutral red | 15.09 µM
O=c1oc(/C=C/c2ccc(C(F)(F)F)cc2)ns1 | ATP | 41 µM
CC(C)(C)NC(=O)CN(C(=O)[C@H]1CC[C@@]2(C)C3CC=C4C[C@@H](O)CC[C@]4(C)C3CC[C@]12C)c1ccc(Cl)cc1 | crystal violet | 228 µM
CC1=CC[C@]2(C)CC[C@]3(CO)[C@@H](C(C)C)CC[C@H]3[C@@H]2C=C1 | fluorescence | 42.2 µM
O=C(Nc1nnc(-c2ccc3c(c2)CCCC3)o1)c1ccc(CC=S)cc1 | luminescence | 26.52 µg/mL
N=c1c2ncnc(Nc3ccc(F)cc3)c2ncn1NC(=O)c1ccccc1 |  | 2.92 µg/mL
COc1cc(O)c(-c2oc3cc(O)cc(O)c3c(=O)c2O)cc1O | MTT | 30.42 µg/mL
CCc1ccc(/C=C/c2nsc(=O)o2)cc1 | ATP | 17 µM
CC(C)[C@H]1CC[C@H]2[C@@H]3C=C[C@]4(C)CC[C@@]3(CC[C@]12C(=O)O)CO4 | fluorescence | 255.9 µM
O=c1oc(/C=C/C(F)(F)F)ns1 | ATP | 21 µM
CC(C)[C@H]1CC[C@H]2[C@@H]3C=C[C@]4(C)CC[C@@]3(CC[C@]12CO)CO4 | fluorescence | >656 µM
COc1cc2c(cc1/C=C/C(=O)c1ccc(C)cc1)C1CC[C@@]3(C)C(CC[C@@H]3O)C1CC2 | neutral red | 29.86 µM
Fc1ccc(-c2csc(-n3cccc3)n2)cc1 | MTT | 261 µM
Cc1ccc(NCC(=O)Sc2nnc(-c3ccncc3)o2)cc1 | MTT | >62.5 µg/mL
COc1ccc(Cn2cnc3c(-c4ccco4)nc(Cl)cc32)cc1 |  | >128 µM
O=C(c1ccccc1)c1nsc(=O)o1 | ATP | 19 µM
COc1c(O)cc(-c2oc3cc(O)cc(O)c3c(=O)c2OC)c(O)c1O | MTT | 13.2 µg/mL
CC(=O)Nc1ccc(/C=N/NC(N)=S)cc1F | MTT | >62.5 µg/mL
CCOC(=O)c1ccc(N2CCN(CCn3c(-c4ccc5c(c4)OCO5)nc4cc(C(=O)OCC)ccc43)CC2)c(N)c1 | MTT | >62.5 µg/mL
CC(C)(C)NC(=O)CN(C(=O)[C@H]1CC[C@@]2(C)C3CC=C4C[C@@H](O)CC[C@]4(C)C3CC[C@]12C)c1ccc(F)cc1 | crystal violet | 176 µM
COc1ccc(Cn2ccc3c(-c4ccco4)nccc32)cc1 |  | 12 µM
N#Cc1ccc(Nc2ncnc3c(=N)n(NC(=O)c4ccncc4)cnc23)cc1 |  | 17.2 µg/mL
O=C(CNc1ccccc1[N+](=O)[O-])Sc1nnc(-c2ccncc2)o1 | MTT | >62.5 µg/mL
O=c1oc(/C=C/c2ccc(OC(F)(F)F)cc2)ns1 | ATP | 20 µM
Cc1ccc(C)n1-c1nc(-c2ccc(F)cc2)cs1 | MTT | 266 µM
Cc1cc(C)c2sc(NN3CCCC3)nc2c1 | luminescence | >40 µg/mL
Clc1ccc(-c2csc(-n3cccc3)n2)cc1 | MTT | 242 µM
Cc1ccccc1NCC(=O)Sc1nnc(-c2ccncc2)o1 | MTT | >62.5 µg/mL
CCOC(=O)c1ccc(N2CCN(CCn3c(-c4cncc(-c5ccc(F)cc5)c4)nc4cc(C(=O)OCC)ccc43)CC2)c(N)c1 | MTT | >62.5 µg/mL
O=C(NN1C(=O)c2c(F)c(F)c(F)c(F)c2C1=O)c1ccc(-n2cccc2)cc1 | MTT | 265.4 µM
COc1cc2c(cc1/C=C/C(=O)c1ccc3c(c1)OCO3)C1CC[C@@]3(C)C(CC[C@@H]3O)C1CC2 | neutral red | 65.04 µM
N=c1c2ncnc(Nc3ccccc3)c2ncn1NC(=O)c1ccco1 |  | 3.16 µg/mL
CC(=O)OC[C@]12CC[C@@]3(C)CC=C(C)C=C[C@H]3[C@@H]1CC[C@@H]2C(C)C | fluorescence | 196.4 µM
CCOC(=O)c1ccc(N2CCN(CCn3c(-c4ccccc4)nc4cc(C(=O)OCC)ccc43)CC2)c(N)c1 | MTT | >62.5 µg/mL
Cc1ccc(/C=C/c2nsc(=O)o2)cc1 | ATP | 21 µM

A second listing of 2 rows from above:

| smiles | read by | result |
|---|---|---|
| O=c1oc(/C=C/c2ccc(OC(F)(F)F)cc2)ns1 | ATP | 20 µM |
| Cc1cc(C)c2sc(NN3CCCC3)nc2c1 | luminescence | >40 µg/mL |